This assay addresses His-EF-Tu (recombinant F. tularensis LVS elongation factor Tu with a polyhistidine tag) (Francisella tularensis LVS).

B1: biotinylated p63 peptide (RGG domain, last 63 amino acid residues of human nucleolin) (peptide)
peptide: KGEGGFGGRGGGRGGFGGRGGGRGGRGGFGGRGRGGFGGRGGFRGGRGGGGDHKPQGKKTKFE
modifications: not checked
Take B1: the concentration of maximum binding is 8 µM.

The values above are taken from patent EP2033655B1.
